From PubChem BioAssay AID588499 (NMMLSC, 2011) come the findings set out here.

SMILES strings stand for the structures. The entries are a selection whose mix differs from that of the whole data set. The source made the active and inactive calls. Cut-off read from the data, not from the text of the source: active = inhibition above about 30%; inconclusive = no clear call, values can overlap the other calls; inactive = below that.

This assay deals with Botulinum neurotoxin type A light chain protease (Clostridium botulinum A str. ATCC 3502). In words: BoNT/A light chain protease inhibitors, primary screen, biochemical, flow cytometry, MLPCN library (AID 588499). Note: plate controls were buffer without enzyme for full effect and enzyme alone for no effect. Particulars: multiplex microsphere protease substrate cleavage, at 10 µM, hits give high values.
The term inhibition denotes the relative decrease from the control value, in per cent. In the case of `CC(C)C(=O)NC(Sc1ccccc1)C(Cl)(Cl)Cl` (stereo not given), the inhibition is inactive: -0.3%. The result for `c1nnnn1CCn1cnnn1` reads inactive: 0.4%; that for `O=P1(Nc2nc3ccc(Cl)cc3s2)COc2ccccc2O1` (stereo not given), inactive: -0.6%; that for `CCOc1ccc(C2=NCC(CBr)S2)cc1` (stereo not given), inactive: 0.3%.

With `CC(C)(C)C(=O)NC(Sc1ccccc1)C(Cl)(Cl)Cl` (stereo not given), the inhibition is inactive: -0.1%. The result for `CCc1cc(O)c([N+](=O)[O-])c(C)c1[N+](=O)[O-]` reads inactive: -0.1%; that for `Cc1ccccc1CN(C)C(=O)COC(=O)C(O)(c1ccccc1)c1ccccc1`, inactive: 1.7%; that for `C[C@@H]1C=CCP(=O)(Oc2ccccc2)O1` (stereo not given in full), inactive: -0.1%. The figure for `C[C@H]1OP(=O)(Oc2ccccc2)C[C@@H]2O[C@@H]21` (stereo not given in full) is inactive: -0.4%; for `N#C/C(=C\c1ccc(N(CCBr)CCBr)cc1)C(N)=O` it is inactive: 0.2%; for `CC(=O)c1ccc(N2CC2c2ccncc2)cc1` (stereo not given) it is inactive: -1%. The result for `COC(=O)C1(C)COP(=O)(NCc2ccccc2)OC1` (stereo not given) reads inactive: 0.1%. On to `CC(=O)Nc1ccc([As](=O)(O)O)c(O)c1`, for which the inhibition is inactive: -0.6%. The result for `CC(=O)Nc1ccc(Oc2c([N+](=O)[O-])cc([N+](=O)[O-])cc2[N+](=O)[O-])cc1` reads inactive: -1.2%. The figure for `c1ccc(-c2nn[nH]n2)c(-c2nn[nH]n2)c1` is inactive: -1.4%; for `O=C(NC1CCS(=O)(=O)C1)NP(=S)(Oc1ccccc1)Oc1ccccc1` (stereo not given) it is inactive: -2.2%. The figure for `CCNC(=S)/N=C(\N)N[N+](=O)[O-]` is inactive: -0.7%. Regarding `O=P1(N(CCCl)CCCl)OCCC2CCCCN21` (stereo not given), the inhibition is inactive: -1.4%. The result for `O=C(OC1CN2CCC1CC2)c1ccccc1` (stereo not given) reads inactive: 1.1%; that for `CCC(=O)N1C2C3N(C(=O)CC)C1C1N(C(=O)CC)C(C(N1C(=O)CC)N3C(=O)CC)N2C(=O)CC`, inactive: -1%. The figure for `COC(=O)c1cc2c(s1)N=C(c1ccccc1)N(C)P2(=O)N1CCOCC1` (stereo not given) is inactive: -0.2%; for `Cc1ccc(OP(=O)(Nc2ccccn2)Oc2ccc(C)cc2)cc1` it is inactive: -0.9%; for `CC(=O)NC(SC(=S)N(CC(C)C)CC(C)C)C(Cl)(Cl)Cl` (stereo not given) it is inactive: -1.3%. The result for `CC(NC(=O)COC(=O)C(O)(c1ccccc1)c1ccccc1)c1ccccc1` (stereo not given) reads inactive: 0%.

Consider `CN(C)C(=O)Oc1noc2ccccc12`, for which the inhibition is inactive: 2.4%. The result for `O=c1c2cc([N+](=O)[O-])ccc2[nH]c2c([N+](=O)[O-])cc([N+](=O)[O-])cc12` reads inactive: -0.5%; that for `CN(C)P(=O)(N(C)C)n1c(Nc2ccccc2)nnc1-c1ccccc1`, inactive: -0.5%.

As for `O=P(Nc1nc2ccc(Cl)cc2s1)(c1ccccc1)c1ccccc1`, the inhibition was inactive: -0.2%. The figure for `O=C(O)c1ccccc1[As](=O)(O)O` is inactive: 0.2%; for `CC(=O)Nc1ccc([As](=O)(O)O)cc1` it is inactive: -0.2%; for `CCCC1OP(N)(=O)OCC1CC` (stereo not given) it is inactive: -0.2%.

Consider `CCOP(=O)(Nc1ccccc1)OCC`, for which the inhibition is inactive: -1.6%.

On to `Cc1cc(SC(NC(=O)c2ccc(F)cc2)C(Cl)(Cl)Cl)ncn1` (stereo not given), for which the inhibition was inactive: -0.7%. The figure for `CN(C(=O)Cc1ccc(Cl)c(Cl)c1)[C@H]1CCCC[C@@H]1N1CCCC1` is inactive: -1.1%.

Take `Cc1ccc(NP(=O)(Oc2ccccc2F)Oc2ccccc2F)nc1`: the inhibition is inactive: -0.5%. As for `Nc1cccc2ccc([As](=O)(O)O)cc12`, the inhibition was inactive: 1.1%. In the case of `CCN(N=Nc1nonc1N)c1nonc1N`, the inhibition is inactive: -0.4%. Regarding `CN(C(=O)Cc1ccc(Cl)c(Cl)c1)[C@H]1CCCC[C@H]1N1CCCC1`, the inhibition is inactive: -0.4%. The result for `Cc1ccc(N/C(=N/P(=O)(N2CCOCC2)N2CCOCC2)N2CCOCC2)cc1` reads inactive: 1.2%.

For `NC(=O)c1cc([N+](=O)[O-])cc([N+](=O)[O-])c1N`, the inhibition was inactive: -1.2%. The result for `Clc1ccc(Cl)c(NC2=NCC(CBr)S2)c1` (stereo not given) reads inactive: -0.3%; that for `CN1CCCC(OC(=O)C(c2ccccc2)c2ccccc2)C1` (stereo not given), inactive: 1.1%; that for `COc1ccccc1OP(=O)(Nc1ccc(C)cn1)Oc1ccccc1OC`, inactive: -1%. Regarding `Cc1ccc(OP(=O)(Nc2nccs2)Oc2ccc(C)cc2)cc1`, the inhibition is inactive: 1%. As for `Oc1ccccc1CNc1ccccn1`, the inhibition is inactive: -1.2%.

Turning to `O=C(NC(Sc1ccncn1)C(Cl)(Cl)Cl)c1ccccc1` (stereo not given), the inhibition was inactive: -0.9%. The figure for `CC(C)CC(=O)NC(Sc1ccc(Cl)cc1)C(Cl)(Cl)Cl` (stereo not given) is inactive: -0.9%; for `Nc1cc(N)c2nonc2c1[N+](=O)[O-]` it is inactive: -1.6%; for `O=[N+]([O-])C1C(O)C(O)C([N+](=O)[O-])C(O)C1O` (stereo not given) it is inactive: -0.5%.

In the case of `COc1ccc(C2=NCC(CBr)S2)cc1` (stereo not given), the inhibition is inactive: -1.1%.

`Cc1ccc(NP(=O)(Oc2ccccc2)Oc2ccccc2)nc1`: the inhibition is inactive: -0.3%.

With `O=[N+]([O-])c1cc([N+](=O)[O-])c(CCNc2ccccc2)c([N+](=O)[O-])c1`, the inhibition is inactive: -1.1%. Consider `CCc1nc2c(n1)c1c(non1O)c1c2no[n+]1[O-]`, for which the inhibition was inactive: 0.2%. Take `CC(=O)N1C2C3N(C(C)=O)C1C1N(C(C)=O)C(C(N1C(C)=O)N3C(C)=O)N2C(C)=O`: the inhibition is inactive: 0.6%.

Regarding `O=[N+]([O-])c1cccc2n[nH]nc12`, the inhibition was inactive: 0.3%. The figure for `CCN(/C(=N/P(=O)(N1CCOCC1)N1CCOCC1)N1CCOCC1)c1ccc(OC)cc1` is inactive: -0.4%; for `Nc1ccc([As](=O)(O)c2ccc(N)cc2)cc1` it is inactive: -0.2%; for `C[N+]1=C2C=CC=CC=C2SC12C([N+](=O)[O-])=CC([N+](=O)[O-])=C[C-]2[N+](=O)[O-]` (stereo not given) it is inactive: 6.9%. The result for `c1cc(-c2nn[nH]n2)ccc1-c1nn[nH]n1` reads inactive: 0%. The result for `CC1CCN(C(=O)Oc2c(Cl)cc(Cl)c3cccnc23)CC1` reads inactive: -0.8%; that for `CC(C)=N/N=C(\N)N[N+](=O)[O-]`, inactive: -0.2%; that for `CC(C)c1nc(Nc2ccccc2)n(P(=O)(N(C)C)N(C)C)n1`, inactive: 0.8%.

In the case of `CN(C)C(=O)OCCc1n(C)cc[n+]1C`, the inhibition was inactive: 0.1%. The figure for `O=P1(N(CCCl)CCCl)OCCCS1` (stereo not given) is inactive: 0.1%; for `O=C(Nc1cc([As](=O)(O)O)ccc1O)c1ccccc1` it is inactive: 6.1%. The figure for `O=[N+]([O-])c1ncn(CCn2ncnc2[N+](=O)[O-])n1` is inactive: -0.2%; for `CC(C)(C)C(=O)NC(Sc1ccncn1)C(Cl)(Cl)Cl` (stereo not given) it is inactive: 0.2%. The result for `O=C(O)CNc1ccc([As](=O)(O)O)cc1` reads inactive: -5%; that for `O=[N+]([O-])c1cccc(NC2=NCC(CBr)S2)c1` (stereo not given), inactive: -5.7%.

For the molecule `COC(=O)C1(C)COP(=O)(Nc2ccccc2)OC1` (stereo not given), the inhibition was inactive: 0%.
